{"source": "PubChem BioAssay AID1259414 (Drosophila RNAi Screening Center, 2018)", "assay": "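Fly genes that alter Wolbachia amount inside host cells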 (primary screen)", "cells": "Drosophila JW18 cells infected with Wolbachia", "reagent": "long dsRNA against Drosophila genes, 0.25 µg dsRNA per well of a 384-well plate", "duration": "5 days", "challenge": "cells persistently infected with Wolbachia before knock-down; no added drug", "read-out": "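Automated imaging of bacterial rRNA staining divided by host cell count, reported as plate-normalised robust z-score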", "scale": "Wolbachia per cell robust z: higher = more Wolbachia per host cell than the plate typical", "hit rule": "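Active if absolute robust z reaches 1.5 in two or more of three replicates, leaving out multi- or no-target dsRNAs, genes unexpressed in JW18 and A1 wells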", "note": "The screen tested about 24,000 reagents; shown is a random part of those that have a named target and a result. Of all reagents, about 1,210 (5%) are marked active. 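Inactive calls also include excluded dsRNAs with several or no targets, genes unexpressed in JW18, and well A1, regardless of score.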 A plus sign joins genes that one reagent is predicted to hit. Reagent sequences are not shown."}
{"target gene": "CG42300 + CG42299", "DRSC id": "DRSC19815", "Wolbachia per cell robust z, rep 1": 0.894, "Wolbachia per cell robust z, rep 2": 0.217, "Wolbachia per cell robust z, rep 3": -0.135, "Call": "inactive"}
{"target gene": "Reg-5 (Rhythmically expressed gene 5)", "DRSC id": "DRSC04647", "Wolbachia per cell robust z, rep 1": -0.89, "Wolbachia per cell robust z, rep 2": -7.58, "Wolbachia per cell robust z, rep 3": -5.18, "Call": "active"}
{"target gene": "inaC (inactivation no afterpotential C)", "DRSC id": "DRSC07632", "Wolbachia per cell robust z, rep 1": 0.724, "Wolbachia per cell robust z, rep 2": -0.499, "Wolbachia per cell robust z, rep 3": 0.309, "Call": "inactive"}
{"target gene": "inaC (inactivation no afterpotential C)", "DRSC id": "DRSC40843", "Wolbachia per cell robust z, rep 1": -0.228, "Wolbachia per cell robust z, rep 2": 0.617, "Wolbachia per cell robust z, rep 3": 0.636, "Call": "inactive"}
{"target gene": "Cht9 (Chitinase 9)", "DRSC id": "DRSC04079", "Wolbachia per cell robust z, rep 1": -1.67, "Wolbachia per cell robust z, rep 2": 1.34, "Wolbachia per cell robust z, rep 3": 0.0821, "Call": "inactive"}
{"target gene": "Cht9 (Chitinase 9)", "DRSC id": "DRSC24781", "Wolbachia per cell robust z, rep 1": -1.53, "Wolbachia per cell robust z, rep 2": -0.505, "Wolbachia per cell robust z, rep 3": 0.485, "Call": "inactive"}
{"target gene": "Cyp6a8 (Cytochrome P450 6a8)", "DRSC id": "DRSC07384", "Wolbachia per cell robust z, rep 1": -0.0348, "Wolbachia per cell robust z, rep 2": 0.647, "Wolbachia per cell robust z, rep 3": -0.686, "Call": "inactive"}
{"target gene": "CG15125", "DRSC id": "DRSC06547", "Wolbachia per cell robust z, rep 1": 0.0439, "Wolbachia per cell robust z, rep 2": -1.41, "Wolbachia per cell robust z, rep 3": -1, "Call": "inactive"}
{"target gene": "RpS27A (Ribosomal protein S27A)", "DRSC id": "DRSC03421", "Wolbachia per cell robust z, rep 1": 1.9, "Wolbachia per cell robust z, rep 2": -3.67, "Wolbachia per cell robust z, rep 3": 2.03, "Call": "active"}
{"target gene": "RpS27A (Ribosomal protein S27A)", "DRSC id": "DRSC30047", "Wolbachia per cell robust z, rep 1": 0.562, "Wolbachia per cell robust z, rep 2": 0.923, "Wolbachia per cell robust z, rep 3": 1.5, "Call": "inactive"}
{"target gene": "PIG-T (Phosphatidylinositol glycan anchor biosynthesis class T)", "DRSC id": "DRSC17774", "Wolbachia per cell robust z, rep 1": 0.805, "Wolbachia per cell robust z, rep 2": -4.06, "Wolbachia per cell robust z, rep 3": 0.731, "Call": "inactive"}
{"target gene": "CG42355", "DRSC id": "DRSC07967", "Wolbachia per cell robust z, rep 1": 0.0872, "Wolbachia per cell robust z, rep 2": -1.2, "Wolbachia per cell robust z, rep 3": 0.227, "Call": "inactive"}
{"target gene": "Coop (Corepressor of Pangolin)", "DRSC id": "DRSC06604", "Wolbachia per cell robust z, rep 1": 0.504, "Wolbachia per cell robust z, rep 2": 0.787, "Wolbachia per cell robust z, rep 3": 0.855, "Call": "inactive"}
{"target gene": "Coop (Corepressor of Pangolin)", "DRSC id": "DRSC25252", "Wolbachia per cell robust z, rep 1": -0.225, "Wolbachia per cell robust z, rep 2": -0.686, "Wolbachia per cell robust z, rep 3": 0.353, "Call": "inactive"}
{"target gene": "alph (alphabet)", "DRSC id": "DRSC15398", "Wolbachia per cell robust z, rep 1": 1.74, "Wolbachia per cell robust z, rep 2": -0.76, "Wolbachia per cell robust z, rep 3": 1.37, "Call": "inactive"}
{"target gene": "alph (alphabet)", "DRSC id": "DRSC28570", "Wolbachia per cell robust z, rep 1": -0.286, "Wolbachia per cell robust z, rep 2": -1.58, "Wolbachia per cell robust z, rep 3": -1.76, "Call": "active"}
{"target gene": "CG11437", "DRSC id": "DRSC11659", "Wolbachia per cell robust z, rep 1": 0.639, "Wolbachia per cell robust z, rep 2": 0.163, "Wolbachia per cell robust z, rep 3": -0.062, "Call": "inactive"}
{"target gene": "CAH16 (Carbonic anhydrase 16)", "DRSC id": "DRSC15371", "Wolbachia per cell robust z, rep 1": 0.825, "Wolbachia per cell robust z, rep 2": 0.852, "Wolbachia per cell robust z, rep 3": 0.481, "Call": "inactive"}
{"target gene": "CAH16 (Carbonic anhydrase 16)", "DRSC id": "DRSC27986", "Wolbachia per cell robust z, rep 1": 1.62, "Wolbachia per cell robust z, rep 2": 0.417, "Wolbachia per cell robust z, rep 3": 1.28, "Call": "inactive"}
{"target gene": "CG14837", "DRSC id": "DRSC10207", "Wolbachia per cell robust z, rep 1": 0.718, "Wolbachia per cell robust z, rep 2": 0.638, "Wolbachia per cell robust z, rep 3": -2.31, "Call": "inactive"}
{"target gene": "CG6712", "DRSC id": "DRSC02981", "Wolbachia per cell robust z, rep 1": -0.0952, "Wolbachia per cell robust z, rep 2": -0.743, "Wolbachia per cell robust z, rep 3": -0.407, "Call": "inactive"}
{"target gene": "CG6712", "DRSC id": "DRSC21690", "Wolbachia per cell robust z, rep 1": 0.269, "Wolbachia per cell robust z, rep 2": 0.107, "Wolbachia per cell robust z, rep 3": 0.0954, "Call": "inactive"}
{"target gene": "NFAT (NFAT nuclear factor)", "DRSC id": "DRSC18991", "Wolbachia per cell robust z, rep 1": 0.131, "Wolbachia per cell robust z, rep 2": 0.234, "Wolbachia per cell robust z, rep 3": -0.245, "Call": "inactive"}
{"target gene": "NFAT (NFAT nuclear factor)", "DRSC id": "DRSC19393", "Wolbachia per cell robust z, rep 1": 0.379, "Wolbachia per cell robust z, rep 2": 0.235, "Wolbachia per cell robust z, rep 3": 0.706, "Call": "inactive"}
{"target gene": "NFAT (NFAT nuclear factor)", "DRSC id": "DRSC24828", "Wolbachia per cell robust z, rep 1": -4.65, "Wolbachia per cell robust z, rep 2": -0.038, "Wolbachia per cell robust z, rep 3": -0.584, "Call": "inactive"}
{"target gene": "NFAT (NFAT nuclear factor)", "DRSC id": "DRSC29663", "Wolbachia per cell robust z, rep 1": -0.298, "Wolbachia per cell robust z, rep 2": -0.0578, "Wolbachia per cell robust z, rep 3": 0.427, "Call": "inactive"}
{"target gene": "Clbn (Caliban)", "DRSC id": "DRSC14404", "Wolbachia per cell robust z, rep 1": 0.198, "Wolbachia per cell robust z, rep 2": 0.256, "Wolbachia per cell robust z, rep 3": -0.127, "Call": "inactive"}
{"target gene": "Jhbp4 (Juvenile hormone binding protein 4)", "DRSC id": "DRSC14222", "Wolbachia per cell robust z, rep 1": 0.543, "Wolbachia per cell robust z, rep 2": -1.19, "Wolbachia per cell robust z, rep 3": -0.577, "Call": "inactive"}
{"target gene": "CG3739", "DRSC id": "DRSC15510", "Wolbachia per cell robust z, rep 1": 0.826, "Wolbachia per cell robust z, rep 2": -5.54, "Wolbachia per cell robust z, rep 3": -0.621, "Call": "inactive"}
{"target gene": "CG34331", "DRSC id": "DRSC20679", "Wolbachia per cell robust z, rep 1": -0.98, "Wolbachia per cell robust z, rep 2": -0.804, "Wolbachia per cell robust z, rep 3": -0.91, "Call": "inactive"}

2 successive entries already listed, for reference:
{"target gene": "inaC (inactivation no afterpotential C)", "DRSC id": "DRSC40843", "Wolbachia per cell robust z, rep 1": -0.228, "Wolbachia per cell robust z, rep 2": 0.617, "Wolbachia per cell robust z, rep 3": 0.636, "Call": "inactive"}
{"target gene": "Cht9 (Chitinase 9)", "DRSC id": "DRSC04079", "Wolbachia per cell robust z, rep 1": -1.67, "Wolbachia per cell robust z, rep 2": 1.34, "Wolbachia per cell robust z, rep 3": 0.0821, "Call": "inactive"}
